The exact form of at least one protein or probe is not confirmed.
Biological target: STAAU_R12 (primary sigma factor SigA) + E. coli core RNA polymerase (Staphylococcus aureus) (UniProt P0A0I8)
Assay: competition with a labelled probe
Conditions: TR-FRET competition, unlabeled, 0-5 fold molar excess reduced complex; purified recombinant protein

By UniProt entry, the sequences of proteins in these tests, tags left out. Where a name states a change or a piece, a line headed by the entry shows the natural chain unless it says otherwise.
UniProt P0A0I8: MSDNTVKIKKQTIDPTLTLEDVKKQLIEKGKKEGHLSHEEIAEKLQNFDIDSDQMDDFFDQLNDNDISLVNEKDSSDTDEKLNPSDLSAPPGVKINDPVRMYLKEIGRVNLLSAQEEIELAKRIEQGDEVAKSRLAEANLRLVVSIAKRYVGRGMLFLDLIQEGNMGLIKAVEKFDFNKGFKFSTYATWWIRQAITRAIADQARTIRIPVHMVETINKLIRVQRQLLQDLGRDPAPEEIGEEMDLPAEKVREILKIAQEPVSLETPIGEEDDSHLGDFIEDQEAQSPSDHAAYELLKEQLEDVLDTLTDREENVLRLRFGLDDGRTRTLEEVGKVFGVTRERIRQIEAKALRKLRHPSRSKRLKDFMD

“GATAGAGTTGACATCCCTATCAGTGATAGAGATACTGAGAACATCAGC / GCTGATGTGCTCAGTATCTCTATCACTGATAGGGATGTCAATCTCTATC [lambda PL oligonucleotide]”: binds.
